Source: patent US20240059693A1, “FUSED BICYCLIC PYRAZOLE DERIVATIVES AND METHODS OF USE THEREOF FOR THE TREATMENT OF HERPESVIRUSES” (Merck Sharp & Dohme LLC, priority 2020, published 2024)
Where two headings read alike, the source gives them in different places.

Chains of the proteins cited; added tags and fusions are not shown.
UniProt P08546, whole entry: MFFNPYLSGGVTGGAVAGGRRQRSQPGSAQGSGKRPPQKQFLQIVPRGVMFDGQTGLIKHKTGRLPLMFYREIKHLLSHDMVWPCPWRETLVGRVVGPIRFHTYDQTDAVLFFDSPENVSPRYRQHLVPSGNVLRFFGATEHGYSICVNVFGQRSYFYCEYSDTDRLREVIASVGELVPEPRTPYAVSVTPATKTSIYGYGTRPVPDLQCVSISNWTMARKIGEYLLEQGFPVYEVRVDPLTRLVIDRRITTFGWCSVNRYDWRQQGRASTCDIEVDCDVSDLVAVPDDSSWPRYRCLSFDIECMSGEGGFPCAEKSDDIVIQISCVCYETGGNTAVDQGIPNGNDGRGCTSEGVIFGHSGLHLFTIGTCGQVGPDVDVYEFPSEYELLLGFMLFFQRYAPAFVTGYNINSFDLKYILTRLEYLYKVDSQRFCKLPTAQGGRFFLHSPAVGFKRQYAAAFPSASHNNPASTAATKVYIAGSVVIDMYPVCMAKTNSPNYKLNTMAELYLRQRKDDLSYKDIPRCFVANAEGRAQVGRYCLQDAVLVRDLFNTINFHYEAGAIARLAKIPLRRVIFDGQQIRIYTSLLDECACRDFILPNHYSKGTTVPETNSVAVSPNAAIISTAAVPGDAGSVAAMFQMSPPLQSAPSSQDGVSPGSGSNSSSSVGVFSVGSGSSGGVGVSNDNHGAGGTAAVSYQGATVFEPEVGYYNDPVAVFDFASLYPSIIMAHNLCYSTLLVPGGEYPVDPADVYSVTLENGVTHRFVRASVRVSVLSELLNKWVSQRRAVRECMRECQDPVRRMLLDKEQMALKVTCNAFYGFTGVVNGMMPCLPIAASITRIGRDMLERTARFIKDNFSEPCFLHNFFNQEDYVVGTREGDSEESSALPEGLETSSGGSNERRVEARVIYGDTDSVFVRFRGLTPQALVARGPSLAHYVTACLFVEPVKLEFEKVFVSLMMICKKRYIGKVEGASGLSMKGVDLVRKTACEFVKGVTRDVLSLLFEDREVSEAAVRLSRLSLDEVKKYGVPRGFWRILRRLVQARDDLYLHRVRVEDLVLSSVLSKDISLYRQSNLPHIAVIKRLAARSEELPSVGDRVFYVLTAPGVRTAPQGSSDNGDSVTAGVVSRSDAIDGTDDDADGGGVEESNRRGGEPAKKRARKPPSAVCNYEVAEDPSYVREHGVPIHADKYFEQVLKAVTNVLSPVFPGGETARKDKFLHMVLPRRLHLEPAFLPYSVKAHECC
UniProt P09252, whole entry: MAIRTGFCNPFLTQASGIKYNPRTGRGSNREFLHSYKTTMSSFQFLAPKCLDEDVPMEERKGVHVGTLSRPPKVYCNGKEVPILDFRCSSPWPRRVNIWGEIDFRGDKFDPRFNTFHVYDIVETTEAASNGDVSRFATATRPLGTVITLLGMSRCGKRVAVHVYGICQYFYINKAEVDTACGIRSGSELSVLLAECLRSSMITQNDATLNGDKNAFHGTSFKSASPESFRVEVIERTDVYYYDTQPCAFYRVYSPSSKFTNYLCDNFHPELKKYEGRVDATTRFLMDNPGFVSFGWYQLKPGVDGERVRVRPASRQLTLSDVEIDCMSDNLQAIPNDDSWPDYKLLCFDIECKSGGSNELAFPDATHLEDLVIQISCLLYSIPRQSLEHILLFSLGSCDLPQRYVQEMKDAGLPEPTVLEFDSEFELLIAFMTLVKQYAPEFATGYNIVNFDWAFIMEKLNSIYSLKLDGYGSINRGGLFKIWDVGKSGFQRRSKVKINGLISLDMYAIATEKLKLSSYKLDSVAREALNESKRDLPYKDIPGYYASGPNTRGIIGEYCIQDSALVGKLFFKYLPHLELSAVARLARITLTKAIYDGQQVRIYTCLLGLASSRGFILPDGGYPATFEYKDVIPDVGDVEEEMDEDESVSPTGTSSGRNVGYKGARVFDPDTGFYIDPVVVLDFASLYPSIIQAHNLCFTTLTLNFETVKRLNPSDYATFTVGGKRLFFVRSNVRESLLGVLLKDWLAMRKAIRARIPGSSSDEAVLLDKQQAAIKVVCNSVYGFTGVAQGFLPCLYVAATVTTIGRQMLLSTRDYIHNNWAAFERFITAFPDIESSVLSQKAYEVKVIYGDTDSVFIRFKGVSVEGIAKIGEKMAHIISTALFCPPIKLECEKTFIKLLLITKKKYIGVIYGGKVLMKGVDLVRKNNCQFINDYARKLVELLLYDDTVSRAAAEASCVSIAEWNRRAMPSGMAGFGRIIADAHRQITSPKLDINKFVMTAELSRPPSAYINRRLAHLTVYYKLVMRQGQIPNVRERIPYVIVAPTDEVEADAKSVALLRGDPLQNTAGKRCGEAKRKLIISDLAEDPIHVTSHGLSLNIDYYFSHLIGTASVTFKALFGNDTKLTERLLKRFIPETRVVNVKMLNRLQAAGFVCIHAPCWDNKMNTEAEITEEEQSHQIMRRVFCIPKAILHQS

Columns and labels:
[1] = target: Human cytomegalovirus DNA polymerase (Human cytomegalovirus, UniProt P08546); assay: HCMV polymerase assay (AlphaLISA); format: biochemical; conditions: read-out: CMV (IC50), HCMV DNA polymerase 0.2 nM, 60 minutes at 37° C.
Description: (§1) Human cytomegalovirus and varicella zoster virus DNA polymerases were expressed via baculovirus vector in SF21 cells and purified. Heterodimeric nucleic acid substrate used in the herpesvirus polymerase reactions was generated by annealing a 59-mer template to a 17-mer digoxigenin-labeled primer. Polymerase (HCMV final concentration of 0.2 nM; VZV final concentration of 0.4 nM) was combined with an inhibitor compound or DMSO in assay buffer (10 mM HEPES, pH 7.5, 25 mM KCl, 25 mM NaCl, 5 mM MgCl2, 5% glycerol, 0.67 mg/ml bovine serum albuminutes, and 1 mM tris(2-carboxyethyl)phosphine), and this mixture was pre-incubated for 30 minutes at room temperature in 384-well microtiter plates. The polymerization reaction was initiated by the addition of template/primer substrate (final concentration: 1.6 nM), and dNTPs (final concentration: 24 nM dCTP, 24 nMdGTP, 16 nM dATP, 16 nM dTTP, and 0.8 nM biotin-dUTP). After 60 minutes incubation at 37° C., reactions were terminated with quench buffer (25 mM HEPES pH 7.5, 100 mM NaCl, 0.25% Tween-20, 12 mM EDTA, and 1 mg/ml bovine serum albumin). Incorporation of biotinylated UTP was detected with 2.5-ug/ml anti-DIG AlphaLISA acceptor beads and 5-10 ug/ml streptavidin AlphaLISA donor beads (Perkin Elmer). Compound effects were normalized to the window defined by the controls (DMSO only and pre-quenched wells) and were fit using a 4-parameter algorithm to report an IC50.

HCMV Strain AD169 = assay: Viral qPCR assay, HCMV in MRC-5 cells; format: cell-based, Human cytomegalovirus
Description: (§2) MRCS cells, Vero cells, and MeWo cells were obtained from ATCC and were maintained at 37° C./5% CO2/90% relative humidity in Minimal Essential Medium with 10% fetal bovine serum, […] L-glutamine, 100 units/ml penicillin and 100 ug/ml streptomycin. Assay plates were prepared by dispensing compounds dissolved in DMSO into wells of 384 well collagen-coated plates using an ECHO acoustic dispenser. Each compound was tested in a 10-point, serial 3-fold dilution. Controls included uninfected cells and infected cells treated only with DMSO. Assays were initiated by mixing selected cells, in suspension, with virus, and dispensing 50 μl/well infected cells to pre-plated compounds. Plates were incubated at 37° C./5% CO2/90% relative humidity for ˜72 hrs to permit genomic replication, and infected cells were lysed by the addition of an equal volume of lysis buffer (10 mM Tris-HCl, pH8, 50 mM KCl, 2 mM MgCl2, 0.45% NP-40, 0.45% Tween-20, and 100 μg/ml proteinase K). An aliquot of the lysate was transferred to a 384-well PCR plate and incubated at 56° C. for 1 hour and then at 95° C. for 10 min. Levels of a viral gene and of the cellular control, PPIA (Thermo Fisher Assay ID=Hs04194521_s1), were measured in separate 10 μL qPCR assays using TaqMan® Gene Expression Master Mix (Applied Biosystems), and an 7900HT Fast Real-Time PCR System with 384-Well Block Module. 7-point, serial 10-fold dilutions of a plasmid standard were run on each plate to generate a standard curve, and genome copies numbers were calculated by plotting experimental Ct onto linear regression of the standard curve. Viral genome copy numbers were normalized by cellular control copy number, and compound effects were normalized to the window defined by the controls. Calculated % effects were fit using a 4-parameter algorithm, and EC50 was reported.
as §2, with “gene” for “gene and of the cellular control, PPIA (Thermo Fisher Assay ID=Hs04194521_s1),”, “in” for “in separate”, “Compound effects on viral” for “Viral”, “number” for “numbers were normalized by cellular control copy number, and compound effects”
HCMV: Strain AD169 Street was assayed in MRC-5 cells and was used at 0.05-0.1 pfu/cell. The assays were performed in either growth media or in the same media with 50% fetal bovine serum. Primer-probe set was Thermo Fisher Assay ID=AIFATFK.

HSV-1 Strain F = assay: Viral qPCR assay, HSV-1 in Vero cells; format: cell-based, Herpes Simplex Virus type 1; conditions: read-out: HSV1 VERO Cell (EC50), ~72 hrs
Description: as §2, with “Plates were incubated at 37° C./5% CO2/90% relative humidity for ˜72 hrs to permit genomic replication, and infected cells were lysed by the addition of an equal volume of lysis buffer (10 mM Tris-HCl, pH8, 50 mM KCl, 2 mM MgCl2, 0.45% NP-40, 0.45% Tween-20, and 100 μg/ml proteinase K). An aliquot of the lysate was transferred to a 384-well PCR plate and incubated at 56° C. for 1 hour and then at 95° C. for 10 min.” left out, “Viral genome copy numbers were normalized by cellular control copy number, and compound effects were normalized to the window defined by the controls.” left out, “reported. […]” for “reported.”

HSV2 = assay: Viral qPCR assay, HSV2 in Vero cells; format: cell-based, Herpes Simplex Virus type 2; conditions: read-out: HSV2 VERO Cell (EC50), ~72 hrs
Description: as §2, with “Plates were incubated at 37° C./5% CO2/90% relative humidity for ˜72 hrs to permit genomic replication, and infected cells were lysed by the addition of an equal volume of lysis buffer (10 mM Tris-HCl, pH8, 50 mM KCl, 2 mM MgCl2, 0.45% NP-40, 0.45% Tween-20, and 100 μg/ml proteinase K). An aliquot of the lysate was transferred to a 384-well PCR plate and incubated at 56° C. for 1 hour and then at 95° C. for 10 min.” left out, “Viral genome copy numbers were normalized by cellular control copy number, and compound effects were normalized to the window defined by the controls.” left out, “reported. […]” for “reported.”

[2] = target: varicella zoster virus DNA polymerase (Varicella-zoster virus, UniProt P09252); assay: VZV polymerase assay (AlphaLISA); format: biochemical; conditions: read-out: VZV (IC50); VZV DNA polymerase 0.4 nM, 60 minutes at 37° C.
Description: as §1, with “Compound effects were normalized to the window defined by the controls (DMSO only and pre-quenched wells) and were fit using a 4-parameter algorithm to report an IC50.” left out

[3] = read-out: CMV MRC5 Cell (EC50), ~72 hrs

| SMILES | IC50 [1] [nM] | EC50 (HCMV Strain AD169; [3]) [nM] | IC50 ([1]; tested form: HCl) [nM] | EC50 (HCMV Strain AD169; read-out: CMV MRC5 Cell (EC50), ~72 hrs, tested form: HCl) [nM] | EC50 (HSV-1 Strain F) [nM] | EC50 (HSV2) [nM] | IC50 [2] [nM] |
| --- | --- | --- | --- | --- | --- | --- | --- |
| C[C@H]1C[C@@H](CN2Cc3c(C(=O)NCc4ccc(Cl)cc4)nn(C)c3C2)NC1=O (relative stereo) [93] | 97.6 | 2160 | – | – | – | – | – |
| C[C@H]1C[C@@H](CN2Cc3c(C(=O)NCc4ccc(Cl)cc4)nn(C)c3C2)NC1=O (relative stereo) [94] | 120 | 1190 | – | – | – | – | – |
| CC1c2c(c(C(=O)NCc3ccc(Cl)cc3)nn2C)CN1C(C)C1CCC(=O)N1 (single isomer, unassigned) | – | – | 1530 | 5010 | – | – | – |
| Cn1nc(C(=O)NCc2ccc(Cl)cc2)c2c1CN(CC1(C)CCC(=O)N1)C2 (single isomer, unassigned) | 12100 | 33000 | – | – | 99000 | 99000 | 4060 |
| CC(C)C(=O)NCCn1nc(C(=O)NCc2ccc(Cl)cc2)c2c1CN(C[C@H]1CCC(=O)N1)C2 [Compound 25] | 45.9 | 5530 | – | – | – | – | 13.1 |
| Cn1nc(C(=O)NCc2ccc(Cl)cc2)c2c1CN(C[C@H]1CC(F)C(=O)N1)C2 (stereo partly shown) [Compound 78] | 49.8 | 304 | – | – | – | – | – |
